# PubChem BioAssay AID504761 | Drosophila RNAi Screening Center, 2011
# Purpose: 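Fly genes whose silencing reduces dengue virus type 2 infection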 (primary screen)
# Cell system: D.Mel-2 cells from Drosophila
# Reagent: long dsRNA against Drosophila genes
# Challenge: infection with dengue virus type 2; dose and infection time not stated
# Measurement: 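Per well on two replicate plates, imaging gave the percent of cells positive for viral envelope protein, ranked by infection, and a nuclear count of cells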
# Reading the numbers: infection score: higher = more virus-infected cells
# Active means: 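Very low infection ranking in both replicate wells (chance probability at most 0.065), then a retest showing infection dropped 1.5-fold or more at p below 0.05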
# Meaning of the calls: active = confirmed: knock-down lowers infection; inactive = not picked or not confirmed
# The deposit covers about 22,000 reagents; shown is an unselected part of those that have a named target and a result. Over the whole deposit, 116 (0.52%) got an active call. 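Calls depend on retest data that are not deposited; infection was ranked per plate without normalising between plates; the unit of the infection score is not given.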 Unmarked entries are inactive. A plus sign joins genes that one reagent is predicted to hit. Not all columns of the deposit are shown. The record does not give: the amount of reagent, the time to read-out.
gene,amplicon,"infection score, replicate 1","infection score, replicate 2"
CG32511 (retired record),DRSC20697,6.83,4.19
Galphao,DRSC07430,5.47,6.09
Galphao,DRSC29710,10.4,9.52
CG3349,DRSC10359,3.49,2.9
CG4597,DRSC10432,1.44,2.4
Hrd3,DRSC14156,2.53,4.64
lectin-24Db,DRSC00553,2,3.62
Art7,DRSC04588,20.6,14.4
Art7,DRSC26145,1.21 (active),0.97
CG15394,DRSC00408,13.2,3.01
CG30281,DRSC04528,11.7,24.8
CG30281,DRSC26805,12.3,2.54
CG32106,DRSC09219,4.7,5.35
rswl,DRSC06923,9.77,4.76
CG32413,DRSC21591,29.7,9.94
Dic3,DRSC06058,7.55,11.8
CG4757,DRSC14130,2.84,5.81
lectin-37Db,DRSC03279,2.58,14.5
CG33172,DRSC21793,3.98,8.8
Su(var)2-10,DRSC07721,8.18,4.61
Su(var)2-10,DRSC28335,8.08,0.92
schuy,DRSC10284,4.32,2.1
schuy,DRSC28184,13.9,9.77
CG15765,DRSC23026,1.44,2.65
CG15765,DRSC29271,13,13.5
CG3085,DRSC04335,12.6,45.7
CG4324,DRSC04462,10.9,21.3
CG4324,DRSC27530,6.05,10.9
Taf2,DRSC11298,12.4,8.19
Taf2,DRSC26215,22.6,12.8
Ndc1,DRSC15895,12.6,10.6
Taf3,DRSC17170,1.52,4
Taf3,DRSC29650,,36.7
CG5902,DRSC15912,2.12,2.85
GIIIspla2,DRSC18094,10.5,3.32
GIIIspla2,DRSC27426,16.9,2.84
CG10939,DRSC06019,11.3,9.39
CG10939,DRSC21734,3.35,15.5
CG16998,DRSC10235,3.56,3.14
Sb,DRSC16851,5.66,26.4
Sb,DRSC29250,14.3,16.2
CG13743,DRSC22775,1.6,14.3
CG13743,DRSC25575,13.3,9.4
Cht7,DRSC08538,3.86,7.45
Cht7,DRSC21783,3.07,1.88
BI-1,DRSC10782,2.2,2.1
Eo,DRSC20187,,10.8
Eo,DRSC26129,5.89,6.2
l(2)37Cd,DRSC02069,3.55,8.43
CG17230,DRSC15203,23.7,12
CG17230,DRSC27268,5.37,7.93
CG13060,DRSC09943,2.91,15.5
CG13060,DRSC28110,1.01,7.86
CG31827 + CG18478,DRSC01958,11.5,2.25
mle,DRSC04921,12.5,1.96
CG10338,DRSC02039,1.94,2.25
mbm,DRSC00319,2.93,2.55
SLO2,DRSC06214,14.1,14.3
SLO2,DRSC06216,6.65,7.95
SLO2,DRSC06218,4.65,16.9
SLO2,DRSC23225,1.24,2.35
SLO2,DRSC27805,14.3,5.6
MFS9,DRSC15560,4.54,2.6
Rh2,DRSC16821,13.2,3.49
Rh2,DRSC25598,1.92,1.16
Fpgs2,DRSC00600,7.55,7.39
His2B:CG33870 + His2B:CG33868 + His2B:CG33882 + 21 more,DRSC03757,8.13,12.2
Ir85a,DRSC14382,3.55,27.9
Ir85a,DRSC29077,16.4,12
CG5377,DRSC15783,4.45,8.54
CG5377,DRSC28892,23.2,19.4
sws,DRSC18843,11.4,12.1
Or9a,DRSC18692,4.7,17.9
Or9a,DRSC28277,9.22,10.5
